Drawing on PMC12274840 (The Journal of Biological Chemistry, 2025), this text covers ΔTm for one substance.

The format of this data set is physicochemical. The conditions noted are these: compared to wild-type counterpart.

Turning to BlaC I105R, the ΔTm entry is “+1 °C”.
